Compound potency records, mixed from different reports. Data source: NIAID ChemDB in PubChem.

Shared fields: whole-cell or culture tests; organism: Influenza B virus; read-out: EC50

a–b is a range or a potency band. An empty or dashed field is not shown. Neighbouring rows are from separate reports. ECn: concentration that inhibits the pathogen or its effect by n%.

compound	read by	cells	strain	result
CC(C)CS[C@H]1C[C@@H](n2cnc3c(N)ncnc32)[C@H](O)[C@@H]1O	cytopathic effect	MDCK	-	>100 µg/mL
CC=NC(=N)c1nc(-c2ccc(OC)cc2)n(C/C=C/c2ccccc2)n1	cytopathic effect	MDCK	Singapore	>100 µg/mL
CCCOc1ncn(-c2ccc(NC(=S)Nc3ncccn3)cc2)n1	cytopathic effect	MDCK	Singapore	>100 µg/mL
C[C@H](CO)[C@@H](OC(=O)NCCCCCCN)[C@@H]1OC(C(=O)O)=C[C@H](N=C(N)N)[C@H]1NC(=O)O	plaque count	MDCK	Victoria	0.009 µg/mL
CCCCCCCCCN(CCC)C(=O)[C@@H]1OC(C(=O)O)=C[C@H](N=C(N)N)[C@H]1NC(C)=O	plaque count	-	-	2.7 µg/mL
CCOc1ncn(-c2ccc(NC(=S)NC34CC5CC(CC(C5)C3)C4)cc2)n1	cytopathic effect	MDCK	Singapore	>200 µg/mL
C[C@H](CO)[C@@H](OC(=O)N(CCCN)CCCCN)[C@@H]1OC(C(=O)O)=C[C@H](N=C(N)N)[C@H]1NC(=O)O	plaque count	MDCK	Victoria	0.034 µg/mL
CC=NC(=N)c1nc(-c2ccc(OC)cc2)n(Cc2ccccc2)n1	cytopathic effect	MDCK	Singapore	>100 µg/mL
CC1=C(c2ccccc2)C2CCCC1C2N	plaque count	MDCK	-	>100 µM
CCN(C(=O)N1C[C@H](N)[C@](O)(C(=O)O)C1)C(C)C	cytopathic effect	MDCK	B/HONG KONG/5/72	305 µM
CCC(CC)[C@H](NC(C)=O)[C@@H]1[C@H](O)[C@@H](C(=O)O)C[C@H]1N=C(N)N	-	MDCK	B/LEE/40	3.2 µM
CC1(CO)CCC(Cn2cnc3c(=O)[nH]c(N)nc32)C1(C)C	cytopathic effect	MDCK	HONG KONG/5/72	>50 µg/mL
[N-]=C=Nc1nncs1	virus yield	MDCK	B/Virginia/88	<1 µg/mL
CCC(CC)[C@H](NC(C)=O)[C@@H]1[C@H](O)[C@@H](C(=O)O)C[C@H]1N=C(N)N	-	MDCK	Harbin/07/94	0.12 µM
CCOC(=O)NC(N)=N[C@H]1C=C(C(=O)O)O[C@@H]([C@H](O)[C@H](O)CO)[C@@H]1NC(C)=O	plaque count	MDCK	B/Victoria/102/85	0.5 µg/mL
CCCC(CCC)C(NC(C)=O)C1C(N=C(N)N)CC(C(=O)O)C1O	-	MDCK	Harbin/07/94	0.06 µM
CCOC(=O)c1cc(C#N)c2[nH]c3ccccc3n2c1=O	plaque count	MDCK	B/Singapore	200 µg/mL
CCC1=C(CC)C2(C)CC[C@@H](C(C)C)C1C2N	plaque count	MDCK	-	>100 µM
Nc1nc(Cl)cc(NCC2(CCO)CCC2)n1	plaque count	MDCK	B/GIFU/2/73	>120 µM
Nc1ccn([C@@H]2C=C(CO)[C@@H](O)[C@H]2O)c(=O)n1	cytopathic effect	MDCK	-	4.5 µg/mL
C#C[C@H](O)C1=C[C@@H](n2cnc3c(N)ncnc32)[C@H](O)[C@@H]1O	cytopathic effect	MDCK	HONG KONG	>50 µg/mL
CCC(CC)O[C@@H]1C=C(C(=O)O)C[C@H](N)[C@H]1NC(C)=O	plaque count	MDCK	Isolate C33D	0.045 µg/mL
CCCOc1ncn(-c2ccc(NC(=S)NC3O[C@H](CO)[C@@H](O)[C@H](O)[C@H]3O)cc2)n1	cytopathic effect	MDCK	Singapore	>200 µg/mL
CCCCCCCNC(=O)O[C@@H]([C@@H]1OC(C(=O)O)=C[C@H](N)[C@H]1NC(=O)O)[C@H](C)CO	plaque count	MDCK	Victoria	0.27 µg/mL
Nc1nc(Cl)cc(NCC2(CO)CCCC2)n1	plaque count	MDCK	B/GIFU/2/73	22–32 µM
CC1(CO)CCC(Cc2nc3ncnc(N)c3[nH]2)C1(C)C	cytopathic effect	MDCK	HONG KONG/5/72	>250 µg/mL
CC1=C(C)C2(C)C(N)C1[C@H](C(C)C)C[C@H]2C	plaque count	MDCK	-	45.1 µM
CCCN(CCc1ccc(Cc2ccccc2)cc1)C(=O)[C@@H]1OC(C(=O)O)=C[C@H](N)[C@H]1NC(C)=O	plaque count	-	-	3.1 µg/mL
CC(=O)N[C@H]1[C@H]([C@H](O)[C@H](O)CO)OC(C(=O)O)=C[C@@H]1N=C(N)N	plaque count	MDCK	B/Harbin/07.94	0.03 µM
CC[C@H](O)C1=C[C@@H](n2cnc3c(N)ncnc32)[C@H](O)[C@@H]1O	cytopathic effect	MDCK	HONG KONG	>250 µg/mL
N#CNc1nncs1	plaque count	MDCK	B/LEE/40	1.54 µg/mL
CCC1=C(CC)C2CCCC1C2N	plaque count	MDCK	-	>100 µM
C[C@H](CO)[C@@H](OC(=O)N1CCNCC1)[C@@H]1OC(C(=O)O)=C[C@H](N=C(N)N)[C@H]1NC(=O)O	plaque count	MDCK	Victoria	>0.1 µg/mL
C#C[C@@H](O)C1=C[C@@H](n2cnc3c(N)ncnc32)[C@H](O)[C@@H]1O	cytopathic effect	MDCK	HONG KONG	>50 µg/mL
CC1(CO)CCC(Cn2ccc(=O)[nH]c2=O)C1(C)C	cytopathic effect	MDCK	HONG KONG/5/72	>250 µg/mL
CCOc1ncn(-c2ccc(NC(=S)NC3O[C@H](CO)[C@@H](O)[C@H](O)[C@H]3O)cc2)n1	cytopathic effect	MDCK	Singapore	>200 µg/mL
Nc1ncnc2c1ncn2[C@@H]1O[C@H](C=NO)[C@@H](O)[C@H]1O	cytopathic effect	MDCK	Singapore	≥0.8 µg/mL
CC1(CO)CCC(Cn2cnc3c(Cl)nc(N)nc32)C1(C)C	cytopathic effect	MDCK	HONG KONG/5/72	>50 µg/mL
CCCN(CCc1cccc(O)c1)C(=O)[C@@H]1OC(C(=O)O)=C[C@H](N)[C@H]1NC(C)=O	plaque count	-	-	2.9 µg/mL
Nc1nc2c(ncn2[C@@H]2O[C@H](CO)[C@@H](O)[C@H]2F)c(=O)[nH]1	plaque count	MDCK	B/Singapore/222/79	2 µM
CCC	-	MDCK	B/HONG KONG/8/73	>50 µM
COc1ccccc1CNC(=O)C1=Cc2ccncc2CC1	cytopathic effect	MDCK	-	158 µM
C[C@H](CO)[C@@H](OC(=O)NCCCCNCCN)[C@@H]1OC(C(=O)O)=C[C@H](N=C(N)N)[C@H]1NC(=O)O	plaque count	MDCK	Victoria	0.27 µg/mL
CC=NC(=N)c1nc(-c2ccccc2)n(C/C=C/c2ccccc2)n1	cytopathic effect	MDCK	Singapore	>20 µg/mL
CC(O)CCCCCC(CCCCCCCCCCCCCC1CC(=O)OC[C@H]2O[C@@H](OC(CCCCCCCCCCCC(CCCCCC(C)O)O[C@@H]3O[C@H](CO)[C@@H](O)[C@H](O)[C@H]3O)CC(=O)OC[C@@H]3O[C@H](O1)[C@@H](O)[C@H](O)[C@H]3O)[C@H](O)[C@@H](O)[C@@H]2O)O[C@@H]1O[C@H](CO)[C@@H](O)[C@H](O)[C@H]1O	cytopathic effect	MDCK	B/LEE/40	3.3 µg/mL
CC1=C(C)C2(C)CCC(C)(C)C1C2N	plaque count	MDCK	-	>25 µM
CC=NC(=N)c1nc(-c2ccc(C)cc2)n(Cc2ccccc2)n1	cytopathic effect	MDCK	Singapore	>20 µg/mL
CC(C)Oc1ccccc1NC(=O)Nc1ccc2cnccc2n1	plaque count	-	-	>32 µg/mL
CCCNC(=O)O[C@@H]([C@@H]1OC(C(=O)O)=C[C@H](N)[C@H]1NC(=O)O)[C@H](C)CO	plaque count	MDCK	Victoria	1.1 µg/mL
Nc1nc(Cl)cc(NCC2(CO)CC(Cc3ccccc3)C2)n1	plaque count	MDCK	B/GIFU/2/73	0.27–0.66 µM
CCOc1ncn(-c2ccc(NC(=S)Nc3cnccn3)cc2)n1	cytopathic effect	MDCK	Singapore	>20 µg/mL
CON=C[C@H]1O[C@@H](n2cnc3c(N)ncnc32)[C@H](O)[C@@H]1O	cytopathic effect	MDCK	Singapore	4 µg/mL
Nc1ncnc2c1ccn2[C@@H]1C[C@H](O)[C@@H](O)[C@H]1O	-	MDCK	Singapore/222/79	>100 µg/mL
CC=NC(=N)c1nc(-c2cccc(C)c2)n(Cc2ccccc2)n1	cytopathic effect	MDCK	Singapore	>20 µg/mL
CC1(CO)CCC(Cn2nnc3c(=O)[nH]c(N)nc32)C1(C)C	cytopathic effect	MDCK	HONG KONG/5/72	>50 µg/mL
C=C(N=CC)c1nc(-c2ccccc2)n([C@@H]2O[C@H](CO)[C@@H](O)[C@H]2O)n1	cytopathic effect	MDCK	Singapore	>200 µg/mL
CCCN(CCc1cccc(OC)c1)C(=O)[C@@H]1OC(C(=O)O)=C[C@H](N)[C@H]1NC(C)=O	plaque count	-	-	1.2 µg/mL

For reference, 3 entries again:

compound | read by | cells | strain | result
Nc1nc2c(ncn2[C@@H]2O[C@H](CO)[C@@H](O)[C@H]2F)c(=O)[nH]1 | plaque count | MDCK | B/Singapore/222/79 | 2 µM
C#C[C@@H](O)C1=C[C@@H](n2cnc3c(N)ncnc32)[C@H](O)[C@@H]1O | cytopathic effect | MDCK | HONG KONG | >50 µg/mL
C[C@H](CO)[C@@H](OC(=O)NCCCCNCCN)[C@@H]1OC(C(=O)O)=C[C@H](N=C(N)N)[C@H]1NC(=O)O | plaque count | MDCK | Victoria | 0.27 µg/mL